# Data: PubChem BioAssay AID485341 (National Center for Advancing Translational Sciences (NCATS), 2010)
# Amino acid sequences for entries named in this document (tags omitted).
# UniProt P00811, whole entry: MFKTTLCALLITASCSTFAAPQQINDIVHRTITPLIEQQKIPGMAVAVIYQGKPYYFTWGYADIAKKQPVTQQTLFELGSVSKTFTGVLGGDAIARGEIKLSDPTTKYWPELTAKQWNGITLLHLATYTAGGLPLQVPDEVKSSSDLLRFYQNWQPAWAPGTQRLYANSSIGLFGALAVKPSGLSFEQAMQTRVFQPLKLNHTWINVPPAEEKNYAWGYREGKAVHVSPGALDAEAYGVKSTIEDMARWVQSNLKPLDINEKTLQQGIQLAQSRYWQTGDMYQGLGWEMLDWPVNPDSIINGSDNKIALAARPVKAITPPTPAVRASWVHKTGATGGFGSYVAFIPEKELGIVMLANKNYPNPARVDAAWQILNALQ
# Only a part is listed here, and it is no random draw. Some salts and complexes are drawn in separate pieces, as the source files them; their charges need not balance. Calls of active or inactive are those of the source. The call rests on the fitted dose curve; in most records, active means well fitted inhibition curve with a large enough effect; inconclusive means small, poorly fitted or top-dose-only effect; inactive means no such curve, though single readings can be large or run the other way.
# Target: Beta-lactamase (Escherichia coli (strain K12)) (UniProt P00811)
# Experiment: qHTS Inhibitors of AmpC Beta-Lactamase (assay without detergent);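 further: plate controls were no compound for no effect and no enzyme for full effect; nearly all actives have a fitted effect of over 20% in size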
# Conditions: AmpC nitrocefin hydrolysis, absorbance 480 nm, 0.0001% Triton; at 57.1 µM (top of the series) unless noted
row,Compound,"activity change, negative = inhibition"
1,CC(C)c1ccc(C(=O)NCC2(N3CCOCC3)CCCCC2)cc1,inactive: 49%
2,COc1ccc(NC2CCN(C(=O)OC(C)(C)C)CC2)cc1,inactive: 55.1%
3,O=C(NCC1(N2CCCCC2)CCCCC1)c1ccc(OC(F)F)cc1,inactive: -12%
4,CCN1CCC(Nc2ccc(Cl)cc2)CC1,inactive: -5.79%
5,N#CC1(Nc2ccccc2)CCN(CCc2ccccc2)CC1,inactive: -17.3%
6,O=C(NCC1(N2CCCCC2)CCCCC1)c1cccc([N+](=O)[O-])c1,inactive: -10.6%
7,CSc1ccc(C(=O)NCC2(N3CCOCC3)CCCCC2)cc1,inactive: -8.46%
8,O=C(OC1CN2CCC1CC2)c1ccc([N+](=O)[O-])cc1 (configuration not stated),inactive: -10.2%
9,COc1ccc2c(c1O)-c1c(O)c(OC)cc3c1[C@H](C2)[N+](C)(C)CC3.O=[N+]([O-])c1cc([N+](=O)[O-])c([O-])c([N+](=O)[O-])c1[O-],inactive: 29%
10,O=C(NCC1(N2CCCCC2)CCCCC1)c1cncc(Br)c1,inactive: -24%
11,CCCOc1ccc(C(=O)NCC2(N(C)C)CCCCC2)cc1OC,inactive: -10.2%
12,CC(C)c1ccc(NC2CCN(C(=O)OC(C)(C)C)CC2)cc1,inactive: 104%
13,COc1ccc(CN(CCCl)CCCl)cc1Cl,inactive: -5.62%
14,O=[N+]([O-])c1cc([N+](=O)[O-])c(OC2CCCCC2O)c([N+](=O)[O-])c1 (configuration not stated),inactive: -12.5%
15,CN(C)c1cccc(C(=O)NCC2(N3CCCCC3)CCCCC2)c1,inactive: -46.9%
16,COc1cc(OC)c(C(=O)NCC2(N(C)C)CCCCC2)cc1OC,inactive: -9.05%
17,O=C(NCC1(N2CCOCC2)CCCCC1)c1cc(F)c(F)cc1Cl,inactive: -14.3%
18,CCOC(=O)N1CCC(Nc2ccc(C)cc2)CC1,inactive: 13.2%
19,N/C(=N\O)c1c(N)no[n+]1[O-],inactive: -23.5%
20,O=C(OC1CN2CCC1CC2)C1c2ccccc2C=Cc2ccccc21 (configuration not stated),inactive: -9.51%
21,CCc1cc(C(=O)NCC2(N3CCCCC3)CCCCC2)sc1C,inactive: -16.6%
22,O=C(O)c1cccc(Nc2c([N+](=O)[O-])cc([N+](=O)[O-])cc2[N+](=O)[O-])c1,inactive: -5.11%
23,COc1cc(C(=O)NCC2(N3CCOCC3)CCCCC2)cc(OC)c1C,inactive: 2.76%
24,O=C(NCC1(N2CCOCC2)CCCCC1)c1cc(Br)ccc1Cl,inactive: -8.3%

row,Compound,"activity change, negative = inhibition"
1,COc1ccc(C(=O)NCC2(N3CCOCC3)CCCCC2)cc1OC,inactive: -15.7%
2,CN(C)C1(CNC(=O)c2cccc(C#N)c2)CCCCC1,inactive: -22%
3,c1ccc(CN2CCC(Nc3ccccc3)CC2)cc1,inactive: -2.89%
4,CCCN1CCC(Nc2cc(OC)cc(OC)c2)CC1,inactive: 19.4%
5,N#Cc1ccc(C(=O)NCC2(N3CCCCC3)CCCCC2)cc1,inactive: -15.6%
6,CC(C)(C)OC(=O)N1CCC(N(C(=O)c2ccccc2)c2ccc(Cl)cc2)CC1,inactive: 119%
7,CCOC(=O)C(CC)C1=NC(C)(C)Cc2ccccc21.O=[N+]([O-])c1cc([N+](=O)[O-])c(O)c([N+](=O)[O-])c1 (configuration not stated),inactive: -10.8%
8,CCN1CCC(Nc2cccc(F)c2)CC1,inactive: 0.291%
9,O=C(NCC1(N2CCCCC2)CCCCC1)c1ccco1,inactive: -9.03%
10,CN(C)c1ccc(C(=O)NCC2(N3CCCCC3)CCCCC2)cc1,inactive: -16%
11,COc1cc(OC)cc(C(=O)NCC2(N3CCCCC3)CCCCC2)c1,inactive: 2.36%
12,Cc1ccc(C(=O)NCC2(N3CCCCC3)CCCCC2)o1,inactive: -9.91%
13,Fc1ccccc1NC1CCN(Cc2ccccc2)CC1,inactive: -17.3%
14,COc1cc(OC)cc(C(=O)NCC2(N3CCOCC3)CCCCC2)c1,inactive: -32.7%
15,COc1cccc(C(=O)N(c2cc(C)cc(C)c2)C2CCN(C(=O)OC(C)(C)C)CC2)c1,inactive: 102%
16,CCC(CO)(C(=O)OC1CN2CCC1CC2)c1ccccc1 (configuration not stated),inactive: -2.09%
17,CN1CCC(Nc2ccc(Cl)cc2)CC1,inactive: -5.13%
18,CCCOc1ccc(C)cc1CN(CCCl)CCCl,inactive: -8.4%
19,CCOc1ncccc1C(=O)NCC1(N2CCOCC2)CCCCC1,inactive: -1.33%
20,CN1CCC(Nc2ccc(F)c(Cl)c2)CC1,inactive: -6%
21,CC(C)(C)OC(=O)N1CCC(Nc2ccccc2)CC1,inactive: 17.9%
22,O=C(O)C1(Nc2ccccc2)CCN(Cc2ccccc2)CC1,inactive: -4.95%
23,CCCOc1ccc(C(=O)NCC2(N(C)C)CCCCC2)cc1,inactive: -2.48%
